According to PMC10065791 (eLife, 2023):

Test system: HIV-1 NL4-3 wild-type virus
Assay: Selection for resistance in CEMx174 culture with escalating inhibitor, start wild-type virus, Primer ID deep sequencing
Format: cell-based
Details: for Abundance of most abundant protease variant at the last time point: wild-type selection, at max inhibitor concentration reached (5000 nM; DRVwt 1350 nM); for primary protease resistance mutation(s) selected: as summarised in text over wild-type and mutant-pool selections
Description: . The selection experiments were performed under two separate starting conditions: first when the starting virus was generated from the NL4-3 clone (this clone closely approximates the clade B consensus for the protease amino acid sequence and will be referred to as ‘wild type’), then again when the starting virus was a mixture of 26 isogenic viruses each with a single mutation associated with drug resistance in the NL4-3 background. […]. For technical reasons, only five of the selections starting with the mixture of mutants reached an inhibitor concentration as high as 400 nM and are reported here (Figure 2—figure supplement 3).
Resistance mutations selected in the protease coding domain during the escalating selective pressure of increasing PI concentration were examined at various timepoints using a next-generation sequencing (NGS) protocol that included Primer ID with the MiSeq platform ([Zhou et al., 2015]). We first examined the sequence of the most abundant variant in each of the two selection schemes present at the highest inhibitor concentration reached (Figure 2A). For those selections that reached 5 μM, 8–14 mutations were present in the most abundant variant. Typically the next two most abundant variants in the population differed by a single amino acid, and on average the three most abundant variants in the 5 μM cultures accounted for 88% of the total viral population (Figure 2—source data 1). Evolution of resistance followed two pathways, one based on I50V and one based on I84V. In three cultures, V2wt, V5wt, and V2mut (which reached either 4 or 5 μM final drug concentration; V2wt indicates the virus pool selected with UMASS-2 starting with wild-type virus), these two mutations, I84V and I50V, became linked on the same genome (Figure 2A) showing they are not mutually exclusive; […].
An aliquot of 3 × 10^6 CEMx174 cells was incubated at 37°C for 2–3 hr with 250 µl of a virus stock generated from the HIV-1 infectious molecular clone pNL4-3. The culture volume was then brought to 10 ml with RPMI medium. […] After 48 hr and every 48 hr after, the cells were pelleted by centrifugation and 10 ml of fresh medium and inhibitors were added. When the culture had undergone extensive cytopathic effect (CPE) indicative of viral replication, the supernatant medium and the cells were harvested separately and stored at –80°C. The virus-containing supernatant was used to start the next round of infection, and after several rounds at the initial concentration, the inhibitor concentration was increased 1.5-fold at each subsequent round of virus passage.
We used the PID protocol to prepare MiSeq PID libraries with multiplexed primers. Viral RNA was extracted from plasma samples using the QIAamp viral RNA mini kit (QIAGEN, Hilden, Germany). Complementary DNA (cDNA) was synthesized using a cDNA primer mixture targeting protease (PR) with a block of random nucleotides in each cDNA primer serving as the PID, and SuperScript III RT (Thermo Fisher). After two rounds of bead purification of the cDNA, we amplified the cDNA using a mixture of a forward primer that targeted the upstream coding region, followed by a second round of PCR to incorporate the Illumina adaptor sequences. Gel-purified libraries were pooled and sequenced using the MiSeq 300 base paired-end sequencing protocol (Illumina). The sequencing covered the HIV-1 PR region (HXB2 2648-2914, 3001-3257).
We used the Illumina bcl2fastq pipeline for the initial processing and constructed template consensus sequences (TCSs) with TCS pipeline version 1.33 (https://github.com/SwanstromLab/PID) ([Zhou, 2019]). We then aligned TCSs to an HXB2 reference to remove sequences not at the targeted region or that had large deletions. We used the Entropy tool at LANL (https://www.hiv.lanl.gov/content/sequence/ENTROPY/entropy.html) to calculate entropy for each specimen. The sequencing data is available at NIH Sequencing Read Archive (SRA) under BioProject ID PRJNA853351.

SMILES | Abundance of most abundant protease variant at the last time point [%] | primary protease resistance mutation(s) selected
CC(C)CN(C[C@@H](O)[C@H](Cc1ccccc1)NC(=O)O[C@H]1CO[C@H]2OCC[C@H]21)S(=O)(=O)c1ccc(N)cc1 [DRV, Darunavir, reference compound] | 62.8 | 
CCC(CC)CN(C[C@@H](O)[C@H](Cc1ccccc1)NC(=O)O[C@H]1CO[C@H]2OCC[C@H]21)S(=O)(=O)c1ccc(CO)cc1 [UMASS-8] | 55.4 | 
CC[C@H](C)CN(C[C@@H](O)[C@H](Cc1ccccc1)NC(=O)O[C@H]1CO[C@H]2OCC[C@H]21)S(=O)(=O)c1ccc(CO)cc1 [UMASS-3] | 85.7 | 
CC[C@H](C)CN(C[C@@H](O)[C@H](Cc1ccccc1)NC(=O)O[C@H]1CO[C@H]2OCC[C@H]21)S(=O)(=O)c1ccc2ncsc2c1 [UMASS-5] | 67.9 | I84V and I50V linked on the same genome
CC[C@H](C)CN(C[C@@H](O)[C@H](Cc1ccccc1)NC(=O)O[C@H]1CO[C@H]2OCC[C@H]21)S(=O)(=O)c1ccc2c(c1)OCO2 [UMASS-4] | 87.3 | 
CCC(CC)CN(C[C@@H](O)[C@H](Cc1ccccc1)NC(=O)O[C@H]1CO[C@H]2OCC[C@H]21)S(=O)(=O)c1ccc2ncsc2c1 [UMASS-10] | 91.2 | just the I50V primary mutation
CC[C@H](C)CN(C[C@@H](O)[C@H](Cc1ccccc1)NC(=O)O[C@H]1CO[C@H]2OCC[C@H]21)S(=O)(=O)c1ccc(N)cc1 [UMASS-1] | 55.4 | preferentially selects for I84V
CCC(CC)CN(C[C@@H](O)[C@H](Cc1ccccc1)NC(=O)O[C@H]1CO[C@H]2OCC[C@H]21)S(=O)(=O)c1ccc(N)cc1 [UMASS-6] | 45.1 | 
CC[C@H](C)CN(C[C@@H](O)[C@H](Cc1ccccc1)NC(=O)O[C@H]1CO[C@H]2OCC[C@H]21)S(=O)(=O)c1ccc(OC)cc1 [UMASS-2] | 37.5 | I84V and I50V linked on the same genome
CCC(CC)CN(C[C@@H](O)[C@H](Cc1ccccc1)NC(=O)O[C@H]1CO[C@H]2OCC[C@H]21)S(=O)(=O)c1ccc(OC)cc1 [UMASS-7] | 94.5 | just the I50V primary mutation
CCC(CC)CN(C[C@@H](O)[C@H](Cc1ccccc1)NC(=O)O[C@H]1CO[C@H]2OCC[C@H]21)S(=O)(=O)c1ccc2c(c1)OCO2 [UMASS-9] | 92.3 | 
